PubChem BioAssay AID1259414, Drosophila RNAi Screening Center | 2018
In all, the deposit lists about 24,000 reagents; shown is an unselected part of those with a known target gene and a result. In the full data, about 1,210 (5%) were called active. 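Inactive calls also include excluded dsRNAs with several or no targets, genes unexpressed in JW18, and well A1, regardless of score.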 A number with no mark means an inactive call. Names joined by + are all predicted targets of the reagent. Reagent sequences are not shown.

Assay: 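Genome-wide screen for host control of endosymbiont load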 (primary screen)
System: Drosophila JW18 cells infected with Wolbachia
Reagents: long dsRNA against Drosophila genes, 0.25 µg dsRNA per well of a 384-well plate
Duration: 5 days
Challenge: cells persistently infected with Wolbachia before knock-down; no added drug
Measurement: 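Automated imaging of bacterial rRNA staining divided by host cell count, reported as plate-normalised robust z-score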
Scale: Wolbachia per cell robust z: higher = more Wolbachia per host cell than the plate typical
Rule for the call: 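Active if absolute robust z reaches 1.5 in two or more of three replicates, leaving out multi- or no-target dsRNAs, genes unexpressed in JW18 and A1 wells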

predicted target | DRSC id | Wolbachia per cell robust z, rep 1 | Wolbachia per cell robust z, rep 2 | Wolbachia per cell robust z, rep 3
CG33469 (GeneID 2768832) | DRSC22900 | 0.262 | -0.293 | -0.742
Ir56d (GeneID 37252) | DRSC06590 | 0.44 | 1.05 | 0.806
Ir56d (GeneID 37252) | DRSC28383 | 0.232 | -1 | -1.05
Atxn7 (GeneID 33423) | DRSC23138 | 0.402 | 1.39 | -4.17
Cad87A (GeneID 41441) | DRSC16161 | -1.49 | -6.65 | -0.128
Cad87A (GeneID 41441) | DRSC29158 | 1.12 | 0.861 | -0.0731
CG12375 (GeneID 34106) | DRSC02163 | 0.315 | -3.89 | 0.143
CG12375 (GeneID 34106) | DRSC26794 | -0.263 | 1.07 | 0.905
CG9747 (GeneID 43591) | DRSC16554 | 0.549 | 0.7 | -0.531
CG9747 (GeneID 43591) | DRSC23910 | -0.269 | 3.13 | -0.663

2 neighbouring entries from above, quoted:
predicted target | DRSC id | Wolbachia per cell robust z, rep 1 | Wolbachia per cell robust z, rep 2 | Wolbachia per cell robust z, rep 3
Ir56d (GeneID 37252) | DRSC28383 | 0.232 | -1 | -1.05
Atxn7 (GeneID 33423) | DRSC23138 | 0.402 | 1.39 | -4.17

The list goes on:
predicted target | DRSC id | Wolbachia per cell robust z, rep 1 | Wolbachia per cell robust z, rep 2 | Wolbachia per cell robust z, rep 3
sinu (GeneID 46187) | DRSC09752 | 1.06 | 0.859 | 0.837
CG4730 (GeneID 43099) | DRSC15633 | 0.274 | -0.18 | 1.3
CG4730 (GeneID 43099) | DRSC24561 | -0.797 | -0.838 | -1.44
Vmat + CG13330 | DRSC06365 | -0.645 | -0.154 | -0.303
mRpL24 (GeneID 33703) | DRSC03113 | 0.152 | -0.0409 | -0.00673
CG7542 (GeneID 39960) | DRSC10868 | 0.0389 | 1.48 | 0.99
vls (GeneID 35289) | DRSC02101 | 1.05 | -1.15 | -1.85
vls (GeneID 35289) | DRSC27088 | 0.532 | -1.76 | 0.148
barr (GeneID 35287) | DRSC03488 | 1.8 (active) | 2.63 | 1.23
Ist1 (GeneID 38750) | DRSC09697 | 1.56 | -1.3 | 0.392
Ist1 (GeneID 38750) | DRSC25231 | 1.08 | 0.921 | 0.538
CG12831 (GeneID 35631) | DRSC06179 | -1.11 | -0.835 | 0.578
CG12307 (GeneID 34584) | DRSC02159 | 0.425 | 0.804 | 0.176
exu (GeneID 37345) | DRSC07615 | -0.281 | 0.304 | -0.834
Cyp303a1 (GeneID 49165) | DRSC03300 | 1.13 | 0.223 | -0.00937
Tollo (GeneID 44497) | DRSC11305 | -0.11 | -0.0149 | -2.48
CG8944 (GeneID 32517) | DRSC20128 | 0.526 | 0.47 | 0.576
CG8944 (GeneID 32517) | DRSC21342 | 0.137 | 0.42 | 0.902
CG8944 (GeneID 32517) | DRSC23741 | 0.483 | -0.512 | 0.484
